A mixed list of measured activities; the numbers were collected in NIAID ChemDB.

Common to all: growth or infection tests; species: Mycobacterium bovis BCG

An empty or dashed field is not shown.

{"SMILES": "O=C(O)Cc1ccc2[nH]c3ccc(C(F)(F)F)cc3c2c1", "read by": "resazurin / visual reading / absorbance", "endpoint": "MIC99", "result": "125 µg/mL"}
{"SMILES": "C#CCCC", "strain or isolate": "1173P2", "read by": "resazurin", "setting": "48 h", "endpoint": "MIC", "result": "15.5 µg/mL"}
{"SMILES": "COC(=O)Cc1ccc2c(c1)[nH]c1ccc(Cl)cc12", "read by": "resazurin / visual reading / absorbance", "endpoint": "MIC99", "result": "15.6 µg/mL"}
{"SMILES": "Cn1cc(/C=N/NC(=S)NN)c2ccccc21", "strain or isolate": "1173P2", "read by": "broth dilution", "setting": "48 h", "endpoint": "MIC100", "result": ">500 µg/mL"}
{"SMILES": "COC(=O)Cc1ccc2[nH]c3ccc(C(F)(F)F)cc3c2c1", "read by": "resazurin / visual reading / absorbance", "endpoint": "MIC99", "result": "7.8 µg/mL"}
{"SMILES": "NNC(=S)N/N=C/c1cn(CC2CC2)c2ccccc12", "strain or isolate": "1173P2", "read by": "broth dilution", "setting": "24 h", "endpoint": "MIC100", "result": ">500 µg/mL"}
{"SMILES": "CN(/N=C/c1ccccc1O)c1ccc2ccccc2n1", "strain or isolate": "Pasteur", "endpoint": "MIC", "result": ">100 µM"}
{"SMILES": "C(=N\\Nc1nncs1)/c1cn(Cc2ccccc2)c2ccccc12", "strain or isolate": "1173P2", "read by": "broth dilution", "setting": "48 h", "endpoint": "MIC100", "result": "250 µg/mL"}
{"SMILES": "O=C(O)Cc1cccc2[nH]c3ccc(Cl)cc3c12", "read by": "resazurin / visual reading / absorbance", "endpoint": "MIC99", "result": "250 µg/mL"}
{"SMILES": "C(=N\\Nc1nncs1)/c1cn(CC2CC2)c2ccccc12", "strain or isolate": "1173P2", "read by": "broth dilution", "setting": "48 h", "endpoint": "MIC100", "result": "7.81 µg/mL"}
{"SMILES": "Cc1c2cc[n+](CCN3CCCCC3)cc2c(C)c2c1[nH]c1ccc(O)cc12", "strain or isolate": "Pasteur", "endpoint": "MIC", "result": "6.25 µM"}
{"SMILES": "CCCCn1cc(/C=N/NC(=S)NN)c2ccccc21", "strain or isolate": "1173P2", "read by": "broth dilution", "setting": "48 h", "endpoint": "MIC100", "result": ">500 µg/mL"}
{"SMILES": "COC(=O)Cc1cccc2[nH]c3ccc(Cl)cc3c12", "read by": "resazurin / visual reading / absorbance", "endpoint": "MIC99", "result": ">500 µg/mL"}
{"SMILES": "COC(=O)C#CC(=O)OC", "strain or isolate": "1173P2", "read by": "resazurin", "setting": "24 h", "endpoint": "MIC", "result": "3.87 µg/mL"}
{"SMILES": "O=[N+]([O-])c1cccc(/C=N/Nc2ccc3ccccc3n2)c1O", "strain or isolate": "Pasteur", "endpoint": "MIC", "result": ">100 µM"}
{"SMILES": "COC(=O)C(C)c1ccc2[nH]c3ccc(Cl)cc3c2c1", "read by": "resazurin / visual reading / absorbance", "endpoint": "MIC99", "result": "31.3 µg/mL"}
{"SMILES": "CN(C)[C@@H]1C(=O)C(C(N)=O)=C(O)[C@@]2(O)C(=O)C3=C(O)c4c(O)ccc(Cl)c4[C@@H](O)[C@H]3C[C@@H]12", "strain or isolate": "Pasteur", "endpoint": "MIC", "result": "3.125 µM"}
{"SMILES": "C#CCCOC(=O)CCCCCC", "strain or isolate": "1173P2", "read by": "resazurin", "setting": "24 h", "endpoint": "MIC", "result": "125 µg/mL"}
{"SMILES": "CCCCn1cc(/C=N/Nc2nncs2)c2ccccc21", "strain or isolate": "1173P2", "read by": "broth dilution", "setting": "24 h", "endpoint": "MIC100", "result": "3.91 µg/mL"}
{"SMILES": "C#CCOC(C)=O", "strain or isolate": "1173P2", "read by": "resazurin", "setting": "24 h", "endpoint": "MIC", "result": "125 µg/mL"}
{"SMILES": "Cc1ccc(Cn2cc(/C=N/NC(=S)NN)c3ccccc32)cc1", "strain or isolate": "1173P2", "read by": "broth dilution", "setting": "24 h", "endpoint": "MIC100", "result": ">500 µg/mL"}

Again, the opening 2 rows:

SMILES | strain or isolate | read by | setting | endpoint | result
O=C(O)Cc1ccc2[nH]c3ccc(C(F)(F)F)cc3c2c1 |  | resazurin / visual reading / absorbance |  | MIC99 | 125 µg/mL
C#CCCC | 1173P2 | resazurin | 48 h | MIC | 15.5 µg/mL

Rows are shuffled and stem from different studies. MIC50, MIC90 and the like: level of inhibition, or share of isolates inhibited.